A mixed list of measured activities; the numbers were collected in NIAID ChemDB.

All rows: whole-cell or culture tests; agent: Mycobacterium avium; measure: MIC

Conditions beyond the fields shown may differ between rows. Two numbers with a dash give a range or band.

smiles	strain or isolate	result
CCCCc1ccc(NC(=S)c2cccc([N+](=O)[O-])c2)cc1	MY330/88	32 µM
CCCCCCOc1ccccc1NC(=O)OCC[N+]1(C)CCCCC1	MY330/88	125 µM
S=C(Nc1ccc(C2CCCCC2)cc1)c1ccccc1	MY330/88	16 µM
CCCCS(=O)(=O)NC[C@H]1O[C@H](O[C@H]2O[C@H](CNS(=O)(=O)CCC)[C@@H](O)[C@H](O)[C@H]2O)[C@H](O)[C@@H](O)[C@@H]1O	NJ3404	>128 µg/mL
CCCCCCCCOc1cccc(NC(=O)OCCN2CCCCCC2)c1	MY330/88	8 µM
CCCCC(CC)CNC[C@H]1O[C@H](O[C@H]2O[C@H](CO)[C@@H](O)[C@H](O)[C@H]2O)[C@H](O)[C@@H](O)[C@@H]1O	NJ3404	>128 µg/mL
CCCCCOc1ccccc1NC(=O)OCC[N+]1(CCCC)CCCCC1	MY330/88	250 µM
Cc1ccc(CSc2ncn[nH]2)cc1	MY330/88	500 µM
CCS/C(N)=N/N=C/c1ccccc1O	CNCTC MY80/72	>1000 µM
CCCCCOc1ccccc1NC(=O)OCC[N+]1(Cc2ccccc2)CCCCC1	MY330/88	125 µM
CCCCCCCCCCOc1ccc(NC(=O)OCCN2CCCCC2)cc1	MY330/88	8 µM
CCCCCCOc1ccccc1NC(=O)OCC[N+]1(CCCC)CCCCC1	MY330/88	125 µM
Cc1ccc2nc(SCc3cccc(C(F)(F)F)c3)[nH]c2c1	MY330/88	32 µM
CC(C)c1ccc(NC(=S)c2ccccc2)cc1	MY330/88	62.5 µM
CCCCCCCCCCCCCCCCCCN(C)C[C@H]1O[C@H](O[C@H]2O[C@H](CN(C)CCCCCCCCCCCCCCCCCC)[C@@H](O)[C@H](O)[C@H]2O)[C@H](O)[C@@H](O)[C@@H]1O	NJ3404	>128 µg/mL
CCCCCCCCOc1cccc(NC(=O)OCCN2CCCCC2)c1	MY330/88	32 µM
CC(C)c1ccc(NC(=S)c2cccc([N+](=O)[O-])c2)cc1	MY330/88	62.5 µM
CCCCCCCCSc1ccnc(C(N)=S)c1	80/72	30 µM
CCCCCOc1ccc(NC(=O)OCC[NH+]2CCCC2)cc1	MY330/88	32 µM
Cc1ccc2nc(SCc3ccc(Br)cc3)[nH]c2c1	MY330/88	>62 µM
Cn1cnnc1SCc1ccc(C(N)=S)cc1	MY330/88	1000 µM
O=S(=O)(NC[C@H]1O[C@H](O[C@H]2O[C@H](CNS(=O)(=O)c3ccccc3)[C@@H](O)[C@H](O)[C@H]2O)[C@H](O)[C@@H](O)[C@@H]1O)c1ccccc1	NJ3404	>128 µg/mL
Fc1ccc(CSc2ncn[nH]2)cc1F	MY330/88	1000 µM
Cc1ccc2nc(SCc3ccc(C(F)(F)F)cc3)[nH]c2c1	MY330/88	62 µM
NC[C@H]1O[C@H](O[C@H]2O[C@H](CN)[C@@H](O)[C@H](O)[C@H]2O)[C@H](O)[C@@H](O)[C@@H]1O	NJ3404	>128 µg/mL
CCS/C(N)=N/N=C/c1ccc2ccccc2n1.CCS/C(N)=N/N=C/c1ccc2ccccc2n1	CNCTC MY66/72	8 µM
Clc1ccc2c(c1)nc1cc(Nc3ccccc3)c(=NC3CCCCC3)cc-1n2-c1ccccc1	24657	3.3 µg/mL
CCCSc1ccnc(C(N)=S)c1	80/72	250 µM
CCCCCCCCCCC[N+]1(CCOC(=O)Nc2ccccc2OCCCCCC)CCCCC1	MY330/88	32 µM
CCCCSc1ccnc(C(N)=S)c1	80/72	250 µM
CCCCCCNC[C@H]1O[C@H](O[C@H]2O[C@H](CNCCCCCC)[C@@H](O)[C@H](O)[C@H]2O)[C@H](O)[C@@H](O)[C@@H]1O	NJ211	128 µg/mL
CCCCCCS/C(N)=N/N=C/c1ccc2ccccc2n1	CNCTC MY66/72	16 µM
CCCCCCCCS(=O)(=O)NC[C@H]1O[C@H](O[C@H]2O[C@H](CNS(=O)(=O)CCCCCCCC)[C@@H](O)[C@H](O)[C@H]2O)[C@H](O)[C@@H](O)[C@@H]1O	NJ168	32–64 µg/mL
Cc1ccc(CSc2nc3ccc(C)cc3[nH]2)cc1	MY330/88	>32 µM
CCS/C(N)=N/N=C/c1ccc2ccccc2n1	CNCTC MY66/72	16 µM
Cc1ccc2nc(SCc3ccc(Cl)cc3)[nH]c2c1	MY330/88	32 µM
CCCCCCSc1ccnc(C(N)=S)c1	80/72	30 µM
CS/C(N)=N/N=C/c1ccc2ccccc2n1	CNCTC D5/93	>1000 µM
Clc1ccc(CSc2ncn[nH]2)cc1	MY330/88	250 µM
CCCCCCCCCCCCN(CCCCCCCCCCCC)C[C@H]1O[C@H](O[C@H]2O[C@H](CN(CCCCCCCCCCCC)CCCCCCCCCCCC)[C@@H](O)[C@H](O)[C@H]2O)[C@H](O)[C@@H](O)[C@@H]1O	NJ168	>128 µg/mL
Cc1ccc2nc(SCc3c(F)cccc3Cl)[nH]c2c1	MY330/88	8 µM
CCC(C)S/C(N)=N/N=C/c1ccncc1	CNCTC MY80/72	500 µM

A second listing of 3 rows from above:

smiles,strain or isolate,result
S=C(Nc1ccc(C2CCCCC2)cc1)c1ccccc1,MY330/88,16 µM
CCCCCCCCS(=O)(=O)NC[C@H]1O[C@H](O[C@H]2O[C@H](CNS(=O)(=O)CCCCCCCC)[C@@H](O)[C@H](O)[C@H]2O)[C@H](O)[C@@H](O)[C@@H]1O,NJ168,32–64 µg/mL
CCCCCCSc1ccnc(C(N)=S)c1,80/72,30 µM